A mixed list of measured activities; the numbers were collected in NIAID ChemDB.

Shared fields: tests on isolated targets; species: HIV-1; protein: Protease

Lines come from different laboratories, so protocols vary. ICn: concentration for n% inhibition. Blank or dashed fields: not listed here.

SMILES	strain	conditions	read by	measure	result
COC(=O)CCCCC(=O)O[C@H]1CC[C@@]2(C)C(CC[C@]3(C)C2CC=C2C4CC(C)(C)CC[C@]4(C(=O)O)CC[C@]23C)C1(C)C	-	-	HPLC	IC50	5.6 µM
COP(=O)(CNC(=O)[C@@H](NC(=O)[C@H](Cc1ccc2ccccc2c1)CS(=O)(=O)C(C)(C)C)C(C)C)CNC(=O)[C@@H](NC(=O)[C@H](Cc1cccc2ccccc12)CS(=O)(=O)C(C)(C)C)C(C)C	-	-	-	IC50	0.95 µM
C[C@@H]1CC[C@]2(C(=O)O)CC[C@]3(C)C(=CCC4[C@@]5(C)CC[C@H](OC(=O)CCCC(=O)O)C(C)(C)C5CC[C@]43C)C2[C@H]1C	-	-	-	IC50	4 µM
CO[C@@H]([C@@H](CC(C)[C@@H]1CC[C@]2(C)C3=CCC4C(C)(C)C(OC(=O)CC(C)(C)C(=O)O)CC[C@]4(C)C3CC[C@@]12C)OC(C)(C)C)C(C)(C)O	-	-	substrate cleavage / fluorescence	IC50	62.8 µM
CC1(C)CC[C@]2(C(=O)O)CC[C@]3(C)C(=CCC4[C@@]5(C)CC[C@H](NC(=O)CCCCC(=O)O)C(C)(C)C5CC[C@]43C)C2C1	-	-	HPLC	IC50	3 µM
CC(C[C@@H](O)[C@H](O)C(C)(C)O)[C@@H]1CC[C@]2(C)C3=CCC4C(C)(C)C(=O)C(O)=C[C@]4(C)C3CC[C@@]12C	-	-	substrate cleavage / fluorescence	IC50	>100 µM
CC[C@@H](C)[C@H](NC(=O)[C@@H]1CCCN1C(=O)[C@@H](O)[C@H](CC1CCCCC1)NC(=O)[C@H](CC(N)=O)NC(=O)CCc1ccccc1)C(=O)N[C@H](C(N)=O)C(C)C	-	-	-	IC50	<5 µM
O=C(CCc1ccc(O)cc1)c1c(O)cc(O)cc1O[C@@H]1O[C@H](CO)[C@@H](O)[C@H](O)[C@H]1O	-	-	-	IC50	>100 µM
C=CCC1NC[C@H](Cc2ccccc2)N(CC(O)CN(CC2CCCC2)S(=O)(=O)c2ccc(OC)cc2)C1=O	-	-	HPLC	Ki	>20 µM
CCOC(=O)Cc1ccc(-c2cc(O)c(SCCc3ccccc3)c(=O)o2)cc1	-	-	-	IC50	0.57 µM
CC(C[C@@H](O)[C@H](O)C(C)(C)O)[C@@H]1CC[C@]2(C)C3=CCC4C(C)(C)C(=O)CC[C@]4(C)C3CC[C@@]12C	-	-	substrate cleavage / fluorescence	IC50	>100 µM
CC(C)C[C@H](NC(=O)[C@@H](NC(=O)CCCCCCCCCCCCCCC(=O)N[C@@H](Cc1ccc(N)cc1)C(=O)N[C@@H](Cc1ccccc1)C(=O)O)C(C)C)C(=O)N[C@@H](Cc1ccccc1)C(N)=O	-	-	HPLC	IC50	0.32 µM
CC(C)[C@H](NC(=O)[C@H](Cc1ccc2ccccc2c1)CS(=O)(=O)C(C)(C)C)C(=O)N[C@@H](Cc1ccccc1)P(N)(=O)[C@H](Cc1ccccc1)NC(=O)[C@@H](NC(=O)[C@H](Cc1cccc2ccccc12)CS(=O)(=O)C(C)(C)C)C(C)C	-	-	-	IC50	0.001 µM
C.NC(=O)C[C@H](NC(=O)CCCCCCCCCCCCCCC(=O)N[C@@H](CO)C(=O)N[C@@H](CC1CCCCC1)C(=O)N[C@@H](Cc1ccccc1)C(N)=O)C(=O)N[C@@H](Cc1cccc2ccccc12)C(=O)O	-	-	HPLC	IC50	0.53 µM
CC[C@H](C)[C@H](NC(=O)[C@@H]1CCCN1C(=O)[C@@H](O)[C@H](Cc1ccccc1)NC(=O)[C@H](CO)NC(=O)Cc1ccccc1)C(=O)N[C@H](C(N)=O)C(C)C	-	-	-	IC50	>5 µM
CC1(C)CC[C@]2(C(=O)O)CC[C@]3(C)C(=CC[C@@H]4[C@@]5(C)CC/C(=N\O)C(C)(C)[C@@H]5CC[C@]43C)[C@@H]2C1	-	-	HPLC	IC50	9.5 µM
CC(C)[C@H](NC(=O)[C@H](Cc1ccc2ccccc2c1)CS(=O)(=O)C(C)(C)C)C(=O)N[C@H](Cc1ccccc1)P(N)(=O)[C@@H](Cc1ccccc1)NC(=O)[C@@H](NC(=O)[C@H](Cc1cccc2ccccc12)CS(=O)(=O)C(C)(C)C)C(C)C	-	-	-	IC50	0.25 µM
CC(C)C[C@H](NC(=O)[C@@H](NC(=O)CCCCCCCCCCCCCCC(=O)N[C@@H](CC(N)=O)C(=O)N[C@@H](Cc1cccc2ccccc12)C(=O)O)C(C)O)C(=O)N[C@@H](Cc1cc(I)c(Oc2cc(I)c(O)c(I)c2)c(I)c1)C(N)=O	-	-	HPLC	IC50	0.23 µM
COc1ccc(S(=O)(=O)N(CC(O)CN2C(=O)C(C)(CC(C)C)NC[C@@H]2Cc2ccccc2)CC2CCCC2)cc1	-	-	HPLC	Ki	0.13 µM
COC(=O)CCCNC(=O)CCCCC(=O)N[C@H]1CC[C@@]2(C)C(CC[C@]3(C)C2CC=C2C4CC(C)(C)CC[C@]4(C(=O)OC)CC[C@]23C)C1(C)C	-	-	HPLC	IC50	>20 µM
CC(=O)O[C@H]1CC[C@]2(C)[C@H]3CC=C4[C@@H]5[C@@H](C)[C@H](C)CC[C@]5(C(=O)O)CC[C@@]4(C)[C@]3(C)CC[C@H]2C1(C)C	-	-	-	IC50	13 µM
COC(=O)[C@]12CCC(C)(C)CC1C1=CCC3[C@@]4(C)CC[C@@H](NC(=O)CCCCC(=O)O)C(C)(C)C4CC[C@@]3(C)[C@]1(C)CC2	-	-	HPLC	IC50	3.5 µM
C[C@H]1[C@H](C)CC[C@]2(C(=O)O)CC[C@]3(C)C(=CC[C@@H]4[C@@]5(C)CC[C@H](OC(=O)C(=O)O)C(C)(C)[C@@H]5CC[C@]43C)[C@H]12	-	-	-	IC50	7 µM
NC(=O)CCNC(=O)[C@@H]1CCCN1C(=O)[C@@H](O)[C@H](Cc1ccccc1)NC(=O)[C@H](CC(N)=O)NC(=O)CCc1ccccc1	-	-	-	IC50	>5 µM
CC(=O)O[C@H]1CC[C@]2(C)[C@H]3CC=C4[C@@H]5CC(C)(C)CC[C@]5(C(=O)O)CC[C@@]4(C)[C@]3(C)CC[C@H]2C1(C)C	-	-	-	IC50	9 µM
CC(C[C@H]1OC(C)(C)O[C@@H]1C(C)(C)O)[C@@H]1CC[C@]2(C)C3=CCC4C(C)(C)C(=O)C[C@]4(C)C3CC[C@@]12C	-	-	substrate cleavage / fluorescence	IC50	>100 µM
CC(O)[C@H](NC(=O)CCCCCCCCCCCCCCC(=O)N[C@@H](CC(N)=O)C(=O)N[C@@H](Cc1cccc2ccccc12)C(=O)O)C(=O)N[C@H](C(=O)N[C@@H](Cc1ccccc1)C(N)=O)C1CCCCC1	-	-	HPLC	IC50	0.37 µM
CC(C)(C)NC(=O)[C@@H]1CN(Cc2cncs2)CCN1C[C@@H](O)C[C@@H](Cc1ccccc1)C(=O)N[C@H]1c2ccccc2C[C@H]1O	IIIB	-	fluorescence	IC50	<0.0005 µM
CC(C)[C@H](NC(=O)[C@H](Cc1ccc2ccccc2c1)CS(=O)(=O)C(C)(C)C)C(=O)N[C@H](Cc1ccccc1)P(=O)(O)[C@@H](Cc1ccccc1)NC(=O)[C@@H](NC(=O)[C@H](Cc1cccc2ccccc12)CS(=O)(=O)C(C)(C)C)C(C)C	-	-	-	IC50	0.085 µM
CC[C@H](C)[C@@H](NC(=O)[C@@H](C[C@H](O)[C@H](CC(C)C)NC(=O)[C@H](Cc1cnc[nH]1)NC(=O)[C@H](Cc1ccccc1)NC(=O)[C@@H]1CCCN1C(=O)[C@@H](N)Cc1cnc[nH]1)C(C)C)C(=O)N[C@@H](Cc1cnc[nH]1)C(=O)O	-	pH 5.0	HPLC	Ki	0.015 µM
COc1ccc(S(=O)(=O)N(CC(O)CN2C(=O)C(Cc3ccccc3)NC[C@@H]2Cc2ccccc2)CC2CCCC2)cc1	-	-	HPLC	Ki	>20 µM
CC1(C)CC[C@]2(C(=O)NCCCCCC(=O)O)CC[C@]3(C)C(=CCC4[C@@]5(C)CC[C@H](OC(=O)CCCCC(=O)O)C(C)(C)C5CC[C@]43C)C2C1	-	-	HPLC	IC50	1.7 µM
CC(CO)(CO)NC(=O)[C@@H]1CCCN1C(=O)[C@@H](O)[C@H](Cc1ccccc1)NC(=O)[C@H](CS(C)(=O)=O)NC(=O)COc1cccc2ccccc12	-	-	-	IC50	>0.05 µM
CO[C@@H]([C@@H](CC(C)[C@@H]1CC[C@]2(C)C3=CCC4C(C)(C)C(OC(=O)CC(C)(C)CC(=O)O)CC[C@]4(C)C3CC[C@@]12C)OC(C)(C)C)C(C)(C)O	-	-	substrate cleavage / fluorescence	IC50	>100 µM
CC1(C)CC[C@]2(C(=O)O)CC[C@]3(C)C(=CCC4[C@@]5(C)CC[C@H](OC(=O)CCCCCCCCC(=O)O)C(C)(C)C5CC[C@]43C)C2C1	-	-	HPLC	IC50	4 µM
C=C(C)[C@@H]1CC[C@@]2(C)C1C1CCC3[C@@](C)(CC(=O)O)C(C(C)(C)C(=O)O)CC[C@@]3(C)[C@]1(C)C[C@@H]2O	-	-	substrate cleavage / fluorescence	IC50	52.2 µM
CC(O)[C@H](NC(=O)CCCCCCCCCCCCCCC(=O)N[C@@H](CC(N)=O)C(=O)N[C@@H](CC1CCCCC1)C(=O)O)C(=O)N[C@@H](CC1CCCCC1)C(=O)N[C@@H](Cc1ccccc1)C(N)=O	-	-	HPLC	IC50	0.63 µM
O=C(O)/C=C/c1ccc(O)cc1	-	-	-	IC50	>100 µM
CC(C)CN(C[C@@H](O)[C@H](Cc1cc(F)cc(F)c1)NC(=O)O[C@H]1C2CO[C@H]3OCC1C3C2)S(=O)(=O)c1ccc2nc(NC3CC3)sc2c1	-	-	substrate cleavage / fluorescence	Ki	0.000014 µM
CC(C)C[C@H](NC(=O)[C@@H](NC(=O)CCCCCCCCCCCCCCC(=O)N[C@@H](CC(N)=O)C(=O)N[C@@H](CC1CCCCC1)C(=O)O)C(C)O)C(=O)N[C@H](C(N)=O)C1CCCCC1	-	-	HPLC	IC50	0.55 µM
COC(=O)CC1C[C@H](Cc2ccccc2)N(CC(O)CN(CC2CCCC2)S(=O)(=O)c2ccc(OC)cc2)C1=O	-	-	HPLC	Ki	0.12 µM
CCOC1C[C@@H](C(=O)NC(C)(C)C)N(C(=O)[C@@H](O)[C@H](Cc2ccccc2)NC(=O)[C@H](CS(C)(=O)=O)NC(=O)COc2cccc3ccccc23)C1	-	-	-	IC50	>0.05 µM
COc1ccc(S(=O)(=O)N(CC(O)CN2C(=O)C(CC(N)=O)C[C@@H]2Cc2ccccc2)CC2CCCC2)cc1	-	-	HPLC	Ki	0.03 µM
C[C@H]1[C@H](C)CC[C@]2(C)CC[C@]3(C)C(=CC[C@@H]4[C@@]5(C)CC[C@H](O)C(C)(C)[C@@H]5CC[C@]43C)[C@H]12	-	-	-	IC50	80 µM